Pooled drug test results. Numbers come from NIAID ChemDB, via PubChem.

Common to all: whole-cell or culture tests; organism: Mycobacterium avium

Inhibition is in % at the dose shown (toxicity tests: loss of growth or viability). A number after MIC or MFC names an inhibition level or a share of isolates. Blank or dashed fields: not listed here. Two numbers with a dash give a range or band. ECn is the concentration giving n% inhibition of infection, replication or growth. Conditions beyond the fields shown may differ between rows.

| compound | strain | cell line | read by | conditions | measure | dose | value |
|---|---|---|---|---|---|---|---|
| Cc1cn([C@H]2C[C@H](F)[C@@H](CO)O2)c(=O)[nH]c1=O | ATCC 25291 | - | - | - | EC50 | - | >50 µg/mL |
| N#Cc1ccc(-n2c(=O)oc3ccc(F)cc3c2=O)cc1 | CNCTC MY330/88 | - | - | - | MIC | - | 62.5 µM |
| O=c1[nH]c(=O)n([C@H]2C[C@H](O)[C@@H](CO)O2)cc1CO | ATCC 25291 | - | - | - | inhibition | 50 µg/mL | 0% |
| COc1ccc(-n2c(=O)oc3ccc(C)cc3c2=O)cc1 | CNCTC MY330/88 | - | - | - | MIC | - | 62.5 µM |
| CC1COc2c(N3CCN(C)CC3)c(F)cc3c(=O)c(C(=O)O)cn1c23 | ATCC 25291 | - | - | - | Mean MIC | - | >8 µg/mL |
| Cc1cn([C@H]2C[C@H](N=[N+]=[N-])[C@@H](CO)O2)c(=O)[nH]c1=O | ATCC 25291 | - | - | - | inhibition | 50 µg/mL | 0% |
| Cc1ccn2c(C(=O)NCc3ccc(C4CCN(C5CN(CC(F)(F)F)C5)CC4)c(F)c3)c(C)nc2c1 | - | - | fluorescence | - | inhibition | 0.61 µM | 85% |
| Fc1cc(Br)ccc1Nc1nnc(-c2ccncc2)o1 | MY330/88 | - | broth dilution | 14 d | MIC100 | - | >125 µM |
| O[C@@H](c1cc(C(F)(F)F)nc2c(C(F)(F)F)cccc12)[C@H]1CCCCN1 | MAC 101 | - | broth dilution / radiometric | - | MIC50 | - | 64 µg/mL |
| CCOC(=O)c1ccc(-n2c(=O)oc3ccc(F)cc3c2=O)cc1 | CNCTC MY330/88 | - | - | - | MIC | - | 32 µM |
| CC(=O)OC[C@H]1O[C@@H](n2cc(C(F)CBr)c(=O)[nH]c2=O)C[C@@H]1OC(C)=O | ATCC 25291 | - | - | - | EC90 | - | 1–5 µg/mL |
| CCCCNC(=O)c1cc([N+](=O)[O-])cc([N+](=O)[O-])c1 | - | - | visual reading | - | MBC | - | 512 µg/mL |
| O=c1oc2ccccc2c(=O)n1-c1ccc([N+](=O)[O-])cc1 | CNCTC MY330/88 | - | - | - | MIC | - | 16 µM |
| Cc1nn2ccc(F)cc2c1C(=O)NCc1ccc(N2CCN(c3ccc(OC(F)(F)F)cc3)[C@@H](C)C2)c(F)c1.Cl | - | - | fluorescence | - | inhibition | 0.11 µM | 85% |
| Cc1ccc2oc(=O)n(-c3ccc(C(F)(F)F)cc3)c(=O)c2c1 | CNCTC MY330/88 | - | - | - | MIC | - | 8 µM |
| O=C(NNC(=O)c1ccncc1)Nc1ccc(F)c(Cl)c1 | MY330/88 | - | broth dilution | 21 d | MIC100 | - | >125 µM |
| Cc1ccn2c(C(=O)NCc3ccc(N4CCN(c5ccc(OC(F)(F)F)cc5)[C@@H](C)C4)c(F)c3)c(C)nc2c1 | - | - | fluorescence | - | inhibition | 0.021 µM | 85% |
| NC[C@H]1O[C@H](O[C@H]2[C@H](O)[C@@H](O[C@H]3O[C@H](CO)[C@@H](O)[C@H](N)[C@H]3O)[C@H](N)C[C@@H]2N)[C@H](O)[C@@H](O)[C@@H]1O | ATCC 25291 | - | - | - | Mean MIC | - | 3.13 µg/mL |
| O=C(NNC(=O)c1ccncc1)Nc1ccc(Br)c(C(F)(F)F)c1 | MY330/88 | - | broth dilution | 14 d | MIC100 | - | >125 µM |
| O=c1[nH]c(=O)n([C@H]2CC[C@@H](CO)O2)cc1I | ATCC 25291 | - | - | - | EC50 | - | >50 µg/mL |
| O[C@@H](c1cc(C(F)(F)F)nc2c(C(F)(F)F)cccc12)C1CCCCN1 | MAC 101 | - | broth dilution / radiometric | - | MIC50 | - | 32 µg/mL |
| O=c1nc2c(ncn2Cc2ccccc2)c(C#Cc2ccccc2)n1Cc1ccccc1 | - | VERO | - | - | EC50 | - | <12.5 µg/mL |
| O[C@H](c1cc(C(F)(F)F)nc2c(C(F)(F)F)cccc12)C1CCCCN1 | MAC 101 | - | broth dilution / radiometric | - | MIC50 | - | 32 µg/mL |
| CC[C@H]1OC(=O)[C@H](C)[C@@H](O[C@H]2C[C@@](C)(OC)[C@@H](O)[C@H](C)O2)[C@H](C)[C@@H](O[C@@H]2O[C@H](C)C[C@H](N(C)C)[C@H]2O)[C@](C)(O)C[C@@H](C)/C(=N\OCOCCOC)[C@H](C)[C@@H](O)[C@]1(C)O | - | - | - | - | Median MIC | - | 4 µg/mL |
| CC(C)(C)c1ccc(NC(=O)NNC(=O)c2ccncc2)cc1 | MY330/88 | - | broth dilution | 21 d | MIC100 | - | 125 µM |
| CCc1nc2ccc(F)cn2c1C(=O)NCc1ccc(N2CCN(c3ccc(OC(F)(F)F)cc3)[C@@H](C)C2)c(F)c1 | - | - | fluorescence | - | inhibition | 0.008 µM | 85% |
| CCCCCCCCCCC#Cc1cn([C@H]2C[C@H](O)[C@@H](CO)O2)c(=O)[nH]c1=O | - | - | - | - | MIC90 | - | >100 µg/mL |
| CN1CCN(c2c(F)cc3c(=O)c(C(=O)O)cn(CCF)c3c2F)CC1 | ATCC 15769 | - | - | - | MIC50 | - | 25 µg/mL |
| CCOC(=O)c1ccc(-n2c(=O)oc3ccccc3c2=O)cc1 | CNCTC MY330/88 | - | - | - | MIC | - | 32 µM |
| Cc1ccn2nc(C(F)(F)F)c(C(=O)NCc3ccc(N4CCN(c5ccc(OC(F)(F)F)cc5)[C@@H](C)C4)c(F)c3)c2c1.Cl | - | - | fluorescence | - | inhibition | 0.27 µM | 85% |
| Cc1onc(-c2ccccc2Cl)c1C(=O)N[C@@H]1C(=O)N2[C@@H]1SC(C)(C)[C@@H]2C(=O)O | ATCC 25291 | - | - | - | Mean MIC | - | >256 µg/mL |
| O=c1oc2cc(Cl)ccc2c(=O)n1-c1cccc(Cl)c1 | CNCTC MY330/88 | - | - | - | MIC | - | 8 µM |
| NCC[C@H](O)C(=O)N[C@@H]1C[C@H](N)[C@@H](O[C@H]2O[C@H](CN)[C@@H](O)[C@H](O)[C@H]2O)[C@H](O)[C@H]1O[C@H]1O[C@H](CO)[C@@H](O)[C@H](N)[C@H]1O | - | - | - | - | Median MIC | - | 4 µg/mL |
| O=c1oc2ccc(Cl)cc2c(=O)n1-c1ccc(F)cc1 | CNCTC MY330/88 | - | - | - | MIC | - | 16 µM |
| CCCCCCCCC#Cc1cn([C@H]2C[C@H](O)[C@@H](CO)O2)c(=O)[nH]c1=O | - | - | - | - | MIC90 | - | >100 µg/mL |
| CC[C@H]1OC(=O)[C@H](C)[C@@H](O[C@H]2C[C@@](C)(OC)[C@@H](O)[C@H](C)O2)[C@H](C)[C@@H](O[C@@H]2O[C@H](C)C[C@H](N(C)C)[C@H]2O)[C@](C)(OC)C[C@@H](C)C(=O)[C@H](C)[C@@H](O)[C@]1(C)O | 453 | - | - | - | MBC | - | 16 µg/mL |
| COc1ccc2c(=O)n(-c3cccc(Cl)c3)c(=O)oc2c1 | CNCTC MY330/88 | - | - | - | MIC | - | 32 µM |

A second listing of 3 rows from above:

compound,strain,cell line,read by,conditions,measure,dose,value
Cc1ccn2nc(C(F)(F)F)c(C(=O)NCc3ccc(N4CCN(c5ccc(OC(F)(F)F)cc5)[C@@H](C)C4)c(F)c3)c2c1.Cl,-,-,fluorescence,-,inhibition,0.27 µM,85%
O=C(NNC(=O)c1ccncc1)Nc1ccc(Br)c(C(F)(F)F)c1,MY330/88,-,broth dilution,14 d,MIC100,-,>125 µM
CC(C)(C)c1ccc(NC(=O)NNC(=O)c2ccncc2)cc1,MY330/88,-,broth dilution,21 d,MIC100,-,125 µM